Data reported in patent EP2365091A1, “Method of screening for HtrA protease inhibitors useful for prophylaxis and therapy of a bacterial infection” (Paul-Ehrlich-Institut, priority 2010, dated 2011).

How the values were obtained:
HtrA = assay: In vitro cleavage of recombinant E-Cadherin by HtrA (Western blot); type: biochemical, Helicobacter pylori; conditions: 5 ng/µl HtrA, 16 h, MMP-inhibitor II 5 x IC50 (Fig. 11E)
Method: For in vitro cleavage studies, recombinant E-Cadherin, EGFR and JAM chimera, IgA or Casein, (R&D Systems, Wiesbaden, Germany) were incubated with HtrA^wt, HtrA^S205A or MMP7 in 50 mM HEPES (pH 7.4) at 37°C for 16 h. Where indicated, HHI or MMP inhibitor II were added. Reactions were stopped by boiling in Laemmli buffer, followed by 8% SDS-PAGE and Western blotting.

MKN-28 cells = assay: Hp-induced ectopic E-Cadherin shedding in infected cells (Western blot of supernatants and lysates); conditions: 150 nM MMP inhibitor II (5x IC50), with or without ADAM10 siRNA (Fig. 1C)
Method: The human gastric adenocarcinoma cell line MKN-28 was grown in RPMI1640 medium (Biochrom, Berlin, Germany) and human breast cancer cells (MCF-7) in DMEM medium (Biochrom) containing 4 mM glutamine (Invitrogen, Karlsruhe, Germany]), and 10% FCS (Biowest, Nuaillé, France) in a humidified 5% CO2 (MKN-28) or 10% CO2 (MCF-7) atmosphere at 37°C. Cells were seeded in tissue culture plates 48 hours before infection and grown to confluence. 1-2 h hours prior to infection, medium was replaced by fresh serum-free media. Where indicated, cells were incubated with indicated concentrations of HHI or MMP inhibitor II (blocks MMP1, MMP3, MMP7 and MMP9) (Calbiochem, Merck , Darmstadt, Germany).
Hp strains Hp26695 and P12 were cultured on agar plates containing 10% horse serum under microaerophilic conditions at 37°C for 48 hours. For infection, bacteria were harvested in PBS Dulbecco's medium, pH 7.4, added to the host cells at a multiplicity of infection (MOI) of 50 or 100 for the indicated time periods and monitored using an inverse phase-contrast microscope (model TS 100, INTAS). To quantify bacteria translocating through cellular monolayers, MKN-28 cells were grown to confluence on filters prior to infection with Hp for 48 h. Translocating Hp were cultured and CFU were counted. All experiments were repeated 3-4 times. […]

COc1ccc(S(=O)(=O)N2CC(C)(C)CN(S(=O)(=O)c3ccc(OC)cc3)C2C(=O)NO)cc1
HtrA activity (E-Cadherin cleavage) (HtrA): did not block
Hp-mediated E-Cadherin cleavage on host cells (MKN-28 cells): neither inhibition of MMPs nor additional down-regulation of ADAM10 expression efficiently blocked
